Test [1] concerns Vancomycin resistant E. faecium. The experiment in a line: MIC, visual inspection and OD600.
Test [2] has as its system Vancomycin resistant E. feacalis. The experiment in a line: MIC, visual inspection and OD600.

Results on one molecule are retold here after US8691859B2 (priority 2005, dated 2014).

Usually MIC stands for the lowest concentration found to suppress growth. Read a low MIC as greater potency.

Values after ≈ are worked out from the molar mass of the structure shown.

For the molecule `c1cc2cc(-c3ccc(-c4cc5ccc(C6=NCCN6)cc5[nH]4)cc3)[nH]c2cc1C1=NCCN1` [NSC 317881, 6-(4,5-dihydro-1H-imidazol-2-yl)-2-[4-[6-(4,5-dihydro-1H-imidazol-2-yl)-1H-indol-2-yl]phenyl]-1H-indole], the MIC in test [1] and in test [2] was 0.155 mg/L (≈ 0.349 µM) in each case.
